Consider one substance from article PMC9100253 (International Journal of Molecular Sciences, 2022).

The data set relates to O=C(Cc1cccs1)N[C@@H]1C(=O)N2C(C(=O)O)=C(/C=C/c3ccc([N+](=O)[O-])cc3[N+](=O)[O-])CS[C@H]12. The experiment in a line: purified protein. The conditions noted are these: PBS pH 7.4, 10 nM enzyme, residual activity.

In the case of “CTX-M-15 (Escherichia coli O25b:H4; S73A)”, the Km is 45.6 ± 1.38 µM, the Vmax is 1.86 µmol/min, the catalytic constant (kcat) was determined as 3.15 s⁻¹ and the specificity constant (kcat/Km) stood at 70000 M⁻¹ s⁻¹.
